Compound potency records, mixed from different reports. Data source: NIAID ChemDB in PubChem.

Shared fields: growth or infection tests; species: Mycobacterium avium complex; read-out: MIC50

An empty or dashed field is not shown.

structure | strain | value
CCC1CN(c2c(F)cc3c(=O)c(C(=O)O)cn(C4CC4)c3c2OC)CCN1 | 14 strains | 1 µg/mL
CC(C)N=c1cc2n(-c3ccccc3)c3ccccc3nc-2cc1Nc1ccc(Cl)cc1 |  | 0.09 µg/mL
CC[C@H]1OC(=O)[C@H](C)[C@@H](O[C@H]2C[C@@](C)(OC)[C@@H](O)[C@H](C)O2)[C@H](C)[C@@H](O[C@@H]2O[C@H](C)C[C@H](N(C)C)[C@H]2O)[C@](C)(OC)C[C@@H](C)C(=O)[C@H](C)[C@@H](O)[C@]1(C)O | 32 isolates | 1 µg/mL
O=C(O)c1cn(C2CC2)c2c(F)c(N3CC4C(CO)C4C3)c(F)cc2c1=O | 14 strains | 8 µg/mL
CCn1cc(C(=O)O)c(=O)c2cc(F)c(N3CCS(=O)CC3)c(F)c21 |  | 8 µg/mL
CN1CCCC1CCN=c1cc2n(-c3ccc(Cl)cc3)c3ccccc3nc-2cc1Nc1ccccc1 | 10 srtains | 1.28 µg/mL
O=C(O)c1cn(C2CC2)c2c(F)c(N3CCSCC3)c(F)cc2c1=O | 14 strains | 4 µg/mL
CC[C@H]1OC(=O)[C@H](C)[C@@H](O[C@H]2C[C@@](C)(OC)[C@@H](O)[C@H](C)O2)[C@H](C)[C@@H](O[C@@H]2O[C@H](C)C[C@H](N(C)C)[C@H]2O)[C@](C)(O)C[C@@H](C)CN(C)[C@H](C)[C@@H](O)[C@]1(C)O | 32 isolates | 8 µg/mL
O=C(O)c1cn(C2CC2)c2c(F)c(N3CCNCC3)c(F)cc2c1=O | 14 strains | 1 µg/mL
CCn1cc(C(=O)O)c(=O)c2cc(F)c(N3CCNCC3)cc21 | 22 strains | 4 µg/mL
O=C(O)c1cn(C2CC2)c2nc(N3CCNCC3)c(F)cc2c1=O | 14 strains | 4 µg/mL
C[C@@H]1CN(c2c(F)c(N)c3c(=O)c(C(=O)O)cn(C4CC4)c3c2F)C[C@H](C)N1 | 37 strains | 2 µg/mL
COc1c(N2CCNC(C)C2)c(F)cc2c(=O)c(C(=O)O)cn(C3CC3)c12 | 20 strains | 3.13 µg/mL
O=C(O)c1cn(C2CC2)c2c(F)c(N3CC4CC3CN4)c(F)cc2c1=O | 14 strains | 2 µg/mL
NNC(=O)c1ccncc1 | 20 strains | 6.25 µg/mL
C[C@@H]1CN(c2c(F)c(N)c3c(=O)c(C(=O)O)cn(C4CC4)c3c2F)C[C@H](C)N1 | 20 strains | 0.2 µg/mL
Cc1c(F)c(N2CCNC(C)C2)c(C(F)(F)F)c2c1c(=O)c(C(=O)O)cn2C1CC1 |  | 8 µg/mL
CCn1cc(C(=O)O)c(=O)c2cc(F)c(N3CCN(C)CC3)cc21 | 17 isolates | 16 µg/mL
CN(C)c1cc(NC(=O)CNC(C)(C)C)c(O)c2c1C[C@H]1C[C@H]3[C@H](N(C)C)C(=O)C(C(N)=O)=C(O)[C@@]3(O)C(=O)C1=C2O | 11 strains | >32 µg/mL
O=C(O)c1cn(C2CC2)c2c(F)c(N3CCSCC3)c(F)cc2c1=O |  | 4 µg/mL
C[C@@H]1CN(c2c(F)c(N)c3c(=O)c(C(=O)O)cn(C4CC4)c3c2F)C[C@H](C)N1 | 16 isolates | 1.56 µg/mL
CO[C@H]1/C=C/O[C@@]2(C)Oc3c(C)c(O)c4c(O)c(c5c(c4c3C2=O)NC2(CCN(CC(C)C)CC2)N=5)=NC(=O)/C(C)=C\C=C\[C@H](C)[C@H](O)[C@@H](C)[C@@H](O)[C@@H](C)[C@H](OC(C)=O)[C@@H]1C | 52 strains | 0.39 µg/mL
C[C@@H]1CN(c2c(F)c(N)c3c(=O)c(C(=O)O)cn(C4CC4)c3c2F)C[C@H](C)N1 | 20 strains | 1.56 µg/mL
CC[C@H]1OC(=O)[C@H](C)[C@@H](O[C@H]2C[C@@](C)(OC)[C@@H](O)[C@H](C)O2)[C@H](C)[C@@H](O[C@@H]2O[C@H](C)C[C@H](N(C)C)[C@H]2O)[C@](C)(OC)C[C@@H](C)C(=O)[C@H](C)[C@@H](O)[C@]1(C)O | 22 strains | ≤0.25 µg/mL
O=C(O)c1cn(C2CC2)c2c(F)c(N3CC4CCCC(C3)N4)c(F)cc2c1=O |  | 2 µg/mL
CCn1cc(C(=O)O)c(=O)c2cc(F)c(N3CCNC(C)C3)c(F)c21 | 16 isolates | 25 µg/mL
CO[C@H]1/C=C/O[C@@]2(C)Oc3c(C)c(O)c4c(=O)c(c5oc6cc(N7CCN(CC(C)C)CC7)cc(=O)c6nc5c4c3=C2O)NC(=O)/C(C)=C\C=C\[C@H](C)[C@H](O)[C@@H](C)[C@@H](O)[C@@H](C)[C@H](OC(C)=O)[C@@H]1C | 18 strains | 0.05 µg/mL
CNn1cc(C(=O)O)c(=O)c2cc(F)c(N3CCN(C)CC3)cc21 | 19 strains | 12.5 µg/mL
COc1cc2c(c3oc(=O)c4c(c13)CCC4=O)C1C=COC1O2 | 32 isolates | 32 µg/mL
NCC[C@H](O)C(=O)N[C@@H]1C[C@H](N)[C@@H](O[C@H]2O[C@H](CN)[C@@H](O)[C@H](O)[C@H]2O)[C@H](O)[C@H]1O[C@H]1O[C@H](CO)[C@@H](O)[C@H](N)[C@H]1O | 20 strains | 4 µg/mL
NC[C@@H]1O[C@H](O[C@H]2[C@@H](O)[C@H](O[C@@H]3[C@@H](O)[C@H](N)C[C@H](N)[C@H]3O[C@H]3O[C@H](CO)[C@@H](O)[C@H](O)[C@H]3N)O[C@@H]2CO)[C@H](N)[C@@H](O)[C@@H]1O | 32 isolates | 8 µg/mL
O=C(O)c1cn(C2CC2)c2c(F)c(N3CCS(=O)CC3)c(F)cc2c1=O |  | 1 µg/mL
NC(=O)c1cnccn1 | 20 strains | >1600 µg/mL
CO[C@H]1/C=C/O[C@@]2(C)Oc3c(C)c(O)c4c(O)c(c5c(c4c3C2=O)NC2(CCN(CC(C)C)CC2)N=5)=NC(=O)/C(C)=C\C=C\[C@H](C)[C@H](O)[C@@H](C)[C@@H](O)[C@@H](C)[C@H](OC(C)=O)[C@@H]1C | 32 isolates | 1 µg/mL
NNC(=O)c1ccncc1 | 20 strains | 1.6 µg/mL
C[C@@H]1CN(c2c(F)c(N)c3c(=O)c(C(=O)O)cn(C4CC4)c3c2F)C[C@H](C)N1 | 12 strains | 0.5 µg/mL
NC[C@H]1O[C@H](O[C@H]2[C@H](O)[C@@H](O[C@H]3O[C@H](CO)[C@@H](O)[C@H](N)[C@H]3O)[C@H](N)C[C@@H]2N)[C@H](O)[C@@H](O)[C@@H]1O |  | 3.1 µg/mL
N[C@@H]1CN(c2c(F)cc3c(=O)c(C(=O)O)cn([C@@H]4C[C@@H]4F)c3c2Cl)CC12CC2 | 20 strains | 1.56 µg/mL
NCC1CCN(c2c(F)cc3c(=O)c(C(=O)O)cn(C4CC4)c3c2F)C1 | 14 strains | 2 µg/mL
CC[C@H]1OC(=O)[C@H](C)[C@@H](O[C@H]2C[C@@](C)(OC)[C@@H](O)[C@H](C)O2)[C@H](C)[C@@H](O[C@@H]2O[C@H](C)C[C@H](N(C)C)[C@H]2O)[C@](C)(O)C[C@@H](C)CN(C)[C@H](C)[C@@H](O)[C@]1(C)O | 28 strains | 16 µg/mL
NC[C@H]1O[C@H](O[C@H]2[C@H](O)[C@@H](O[C@H]3O[C@H](CO)[C@@H](O)[C@H](N)[C@H]3O)[C@H](N)C[C@@H]2N)[C@H](O)[C@@H](O)[C@@H]1O |  | <1.3 µg/mL
CN1CCN(CCCN=c2cc3n(-c4ccc(Cl)cc4)c4ccccc4nc-3cc2Nc2ccccc2)CC1 | 10 srtains | 1.7 µg/mL
CC1CCN(c2c(F)cc3c(=O)c(C(=O)O)cn(C4CC4)c3c2F)C1 |  | 2 µg/mL
CN(C)[C@@H]1C(=O)C(C(N)=O)=C(O)[C@@]2(O)C(=O)C3=C(O)c4c(O)cccc4[C@@](C)(O)[C@H]3C[C@@H]12 | 11 strains | >128 µg/mL
CO[C@H]1/C=C/O[C@@]2(C)Oc3c(C)c(O)c4c(O)c(c5c(c4c3C2=O)NC2(CCN(CC(C)C)CC2)N=5)=NC(=O)/C(C)=C\C=C\[C@H](C)[C@H](O)[C@@H](C)[C@@H](O)[C@@H](C)[C@H](OC(C)=O)[C@@H]1C |  | 0.14 µg/mL
CC1CN(c2c(F)cc3c(=O)c(C(=O)O)cn(C4CC4)c3c2F)C(C)CN1 |  | 2 µg/mL
NNC(=O)c1ccncc1 |  | >1 µg/mL
NC(=O)c1ncn([C@@H]2O[C@H](CO)[C@@H](O)[C@H]2O)n1 | 32 isolates | >128 µg/mL
NC1CCN(c2c(F)cc3c(=O)c(C(=O)O)c4n(c3c2F)CCS4)C1 | 14 strains | ≥32 µg/mL
Cn1nnnc1SCC1=C(C(=O)O)N2C(=O)[C@@H](NC(=O)[C@H](O)c3ccccc3)[C@H]2SC1 |  | 21.4 µg/mL
C[C@H]1COc2c(N3CCN(C)CC3)c(F)cc3c(=O)c(C(=O)O)cn1c23 | 20 strains | 6.25 µg/mL
CC[C@H]1OC(=O)[C@H](C)C(=O)[C@H](C)[C@@H](O[C@@H]2O[C@H](C)C[C@H](N(C)C)[C@H]2O)[C@](C)(OC)C[C@@H](C)C(=O)[C@H](C)[C@H]2N(CCCCn3cnc(-c4cccnc4)c3)C(=O)O[C@]12C | 24 isolates (HIV+) | 128 µg/mL
N[C@@H]1CN(c2c(F)cc3c(=O)c(C(=O)O)cn([C@@H]4C[C@@H]4F)c3c2Cl)CC12CC2 | 16 isolates | 6.25 µg/mL
COc1c(N2CCNCC2)c(F)cc2c(=O)c(C(=O)O)cn(-c3ccc(F)cc3F)c12 | 14 strains | ≥32 µg/mL
CC(C)N=c1cc2n(-c3ccc(Cl)cc3)c3ccccc3nc-2cc1Nc1ccc(Cl)cc1 | 37 strains | 4 µg/mL
O=C(O)c1cn(C2CC2)c2nc(N3CCN4CC3C4)c(F)cc2c1=O |  | 8 µg/mL
CO[C@H]1/C=C/O[C@@]2(C)Oc3c(C)c(O)c4c(O)c(c5c(c4c3C2=O)NC2(CCN(CC(C)C)CC2)N=5)=NC(=O)/C(C)=C\C=C\[C@H](C)[C@H](O)[C@@H](C)[C@@H](O)[C@@H](C)[C@H](OC(C)=O)[C@@H]1C | 50 isolates | 0.25 µg/mL
CC[C@H]1OC(=O)[C@H](C)[C@@H](O[C@H]2C[C@@](C)(OC)[C@@H](O)[C@H](C)O2)[C@H](C)[C@@H](O[C@@H]2O[C@H](C)C[C@H](N(C)C)[C@H]2O)[C@](C)(OC)C[C@@H](C)C(=O)[C@H](C)[C@@H](O)[C@]1(C)O | 20 strains | 2 µg/mL
CC(C)N1CCN(c2c(F)cc3c(=O)c(C(=O)O)cn(C4CC4)c3c2F)CC1 | 14 strains | 2 µg/mL
O=C(O)c1cn(C2CC2)c2c(F)c(N3CCS(=O)(=O)CC3)c(F)cc2c1=O | 14 strains | 2 µg/mL

The last 9 rows once more:

structure,strain,value
CC[C@H]1OC(=O)[C@H](C)C(=O)[C@H](C)[C@@H](O[C@@H]2O[C@H](C)C[C@H](N(C)C)[C@H]2O)[C@](C)(OC)C[C@@H](C)C(=O)[C@H](C)[C@H]2N(CCCCn3cnc(-c4cccnc4)c3)C(=O)O[C@]12C,24 isolates (HIV+),128 µg/mL
N[C@@H]1CN(c2c(F)cc3c(=O)c(C(=O)O)cn([C@@H]4C[C@@H]4F)c3c2Cl)CC12CC2,16 isolates,6.25 µg/mL
COc1c(N2CCNCC2)c(F)cc2c(=O)c(C(=O)O)cn(-c3ccc(F)cc3F)c12,14 strains,≥32 µg/mL
CC(C)N=c1cc2n(-c3ccc(Cl)cc3)c3ccccc3nc-2cc1Nc1ccc(Cl)cc1,37 strains,4 µg/mL
O=C(O)c1cn(C2CC2)c2nc(N3CCN4CC3C4)c(F)cc2c1=O,,8 µg/mL
CO[C@H]1/C=C/O[C@@]2(C)Oc3c(C)c(O)c4c(O)c(c5c(c4c3C2=O)NC2(CCN(CC(C)C)CC2)N=5)=NC(=O)/C(C)=C\C=C\[C@H](C)[C@H](O)[C@@H](C)[C@@H](O)[C@@H](C)[C@H](OC(C)=O)[C@@H]1C,50 isolates,0.25 µg/mL
CC[C@H]1OC(=O)[C@H](C)[C@@H](O[C@H]2C[C@@](C)(OC)[C@@H](O)[C@H](C)O2)[C@H](C)[C@@H](O[C@@H]2O[C@H](C)C[C@H](N(C)C)[C@H]2O)[C@](C)(OC)C[C@@H](C)C(=O)[C@H](C)[C@@H](O)[C@]1(C)O,20 strains,2 µg/mL
CC(C)N1CCN(c2c(F)cc3c(=O)c(C(=O)O)cn(C4CC4)c3c2F)CC1,14 strains,2 µg/mL
O=C(O)c1cn(C2CC2)c2c(F)c(N3CCS(=O)(=O)CC3)c(F)cc2c1=O,14 strains,2 µg/mL

A number after MIC or MFC names an inhibition level or a share of isolates. Lines come from different laboratories, so protocols vary.